# How the values were obtained:
# [1] = GC retention time (DB-5MS, GC-APCI); higher = later elution
# Method: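 Standards of hydrophobic organic contaminants were analysed by GC-APCI (positive mode, dry or wet source conditions) coupled to cyclic ion mobility-QTOF MS. CCS was measured for the base ion (sometimes a fragment ion) in N2 drift gas (one-pass mode, calibrated with a Waters 22-compound mix). 5 mL/min).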
# [2] = collision cross section (N2, base ion); higher = larger ion cross section
# Method: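 Standards of hydrophobic organic contaminants were analysed by GC-APCI (positive mode, dry or wet source conditions) coupled to cyclic ion mobility-QTOF MS. CCS was measured for the base ion (sometimes a fragment ion) in N2 drift gas (one-pass mode, calibrated with a Waters 22-compound mix).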
structure (smiles),measurement,setting,value
"CCCCOP(=O)(OCCCC)OCCCC [Tributyl phosphate] (APCI source condition: Wet, base ion: [M+H]+)",GC retention time,[1],13.8 min
same,collision cross section,[2],167.02 Å²
